Compound potency records, mixed from different reports. Data source: NIAID ChemDB in PubChem.

Shared fields: cytotoxicity tests; endpoint: CC50

CCn is the concentration with n% toxicity to the cells.

smiles | method | cell line | value
Nc1ncnc2c1c(-c1cccs1)cn2[C@H]1O[C@H](CO)[C@@H](O)C1(F)F | XTT | Replicon cells | 38.42 µM
CC(=N\NC(=O)c1ccc([N+](=O)[O-])o1)/C(Cl)=N/Nc1ccccc1 | MTT | MDA-MB-231 | >50 µg/mL
Nc1[nH]c(N=NC(=O)c2ccccn2)c2cccc(Sc3ccc(Cl)cc3)c12 | - | L6 | 7 nM
CCCNc1ccccc1OCCCCC(=O)OCC | - | HEK 293 | >20 µM
CCCCS(=O)(=O)Nc1ccc2[nH]c(C(=O)NCc3ccc(C)cc3)c(C)c2c1 | resazurin | VERO | 120 µM
CN(C)CCSc1cccc2c(N=NC(=O)c3ccccn3)[nH]c(N)c12 | - | L6 | 10 nM
Cc1ccc(-c2nc3ccccc3n2C(=O)/C=C/c2ccccc2)cc1 | MTT / absorbance | 8E5 | <10 µg/mL
CCCCS(=O)(=O)Nc1ccc2[nH]c(C(=O)N3CCC3)c(C)c2c1 | resazurin | VERO | >140 µM
CCN(CC)CCCC(C)Nc1ccnc2cc(Cl)ccc12 | - | RFII/H9 | >300 µM
COC(=O)N[C@H](C(=O)NC(CN[C@@H]1CNC[C@H]1N(CCC(C)C)S(=O)(=O)c1ccc(N)cc1)CC(C)C)C(c1ccccc1)c1ccccc1 | microscopy | T lymphoid cells | >10 µM
CCN(CC)Cc1cc2ccc3c(c2oc1=O)[C@@H](OC(=O)C12CCC(C)(C(=O)O1)C2(C)C)[C@@H](OC(=O)C12CCC(C)(C(=O)O1)C2(C)C)C(C)(C)O3 | XTT | H9 | >14.1 µM
CC(C)NCC(O)COc1cccc2ccccc12 | MTT | CHO | >300 µM
COC(=O)CCc1cccc(-c2cccc(-c3cc(=O)n(O)c4ncccc34)c2)c1 | - | HeLa | <100 µM
Nc1ncnc2c1c(-c1cccs1)cn2[C@@H]1O[C@H](CO)[C@@H](O)C1(F)F | XTT | Replicon cells | 9.84 µM
CCCCS(=O)(=O)Nc1ccc2[nH]c(C(=O)NCC3CCC3)c(C)c2c1 | resazurin | VERO | >100 µM
CCOC(=O)CCCCCOc1cccc(CN(C(=O)c2ccc(-c3cccc(OC(F)(F)F)c3)cc2)C(C)C)c1 | - | HEK 293 | >20 µM
COC(=O)N[C@H](C(=O)NC(C)(C)CN[C@@H]1CNC[C@H]1N(CCC(C)C)S(=O)(=O)c1ccc(N)cc1)C(c1ccccc1)c1ccccc1 | microscopy | T lymphoid cells | >10 µM
Nc1ncnc2c1c(I)cn2[C@@H]1O[C@H](CO)[C@@H](O)[C@H]1F | XTT | Replicon cells | 10.2 µM
O=C(O)c1cn(-c2ccc(Cn3cncn3)cc2)c2c(OC(F)F)c(N3CC=C(c4ccccc4)CC3)c(F)cc2c1=O | - | OM-10.1 | 0.3 µM
CCOC(=O)C(N)CCSC[C@H]1O[C@@H](n2ccc3c(N)ncnc32)[C@H](O)[C@@H]1O | - | PRK/E6SM | 400 µg/mL
COC1=CCC(C2C3(CO)C4N(Cc5ccc(OC)cc5)C5C6(CO)C(c7ccc(OC)cc7)C4(CO)C3N(Cc3ccc(OC)cc3)C6C25CO)C=C1 | - | EPG85-257DB | 40 µM
C/C1=C\[C@H](O)C[C@@](C)(O)/C=C/[C@H](C(C)C)CC/C(C)=C/CCC1 | MTT | Neurons | >10 µM
CC(C)(C)C(=O)OCn1nc([C@@H]2O[C@H](CO)[C@@H](O)[C@H]2O)c2ncnc(N)c21 | - | PRK/E6SM | 40 µg/mL
O=C(N/N=C(/CS(=O)(=O)c1ccccc1)c1ccc(F)cc1)c1ccc([N+](=O)[O-])o1 | MTT | MDA-MB-231 | >50 µg/mL
CN(C)c1ccnc(C(=O)N=Nc2[nH]c(N)c3c2ccc2ccccc23)c1 | - | L6 | 36 nM
CN1CCN(CC(O)COc2ccc3ccccc3c2)CC1 | MTT | CHO | 148.7 µM
O=c1[nH]c(=O)n([C@H]2C[C@H](O)[C@@H](CO)O2)cc1/C=C/Br | cell count | NIH 3T3 | 18 µM
C=C(C)[C@@H]1CC[C@]2(C(=O)N[C@@H](CCSC)C(=O)OC)CC[C@@]3(C)C(CCC4[C@@]5(C)CC/C(=N\O)C(C)(C)C5CC[C@]43C)C12 | MTT | MOLT-4/8 | 0.91 µM
OC(CNCc1ccccc1)COc1cccc2ccccc12 | MTT | CHO | 8.27 µM
Nc1[nH]c(N=NC(=O)c2ccccn2)c2c(Sc3ccc(Cl)cc3)cccc12 | - | L6 | 114 nM
CCCCC(CN[C@@H]1CNC[C@H]1N(CCC(C)C)S(=O)(=O)c1ccc(N)cc1)NC(=O)[C@@H](NC(=O)OC)C(c1ccccc1)c1ccccc1 | microscopy | T lymphoid cells | >10 µM
CC(=O)NC(CCSC[C@H]1O[C@@H](n2ccc3c(N)ncnc32)[C@H](O)[C@@H]1O)C(=O)OC(C)C | - | PRK/E6SM | >400 µg/mL
COc1ccccc1N1CCN(c2c(F)cc3c(=O)c(C(=O)O)cn(C)c3c2CN(C)C)CC1 | - | OM-10.1 | 18.3 µM
Nc1ncnc2c1c(-c1ccsc1)cn2[C@H]1O[C@H](CO)[C@@H](O)C1(F)F | XTT | Replicon cells | >44 µM
CC(C)c1c(OCC(O)CN2CCN(c3ccccc3)CC2)ccc2c1CCC1C(C)(C)CCC[C@]21C | MTT | CHO | 105 µM
CCCCc1ccc(C(=O)N=Nc2[nH]c(N)c3c2ccc2ccccc23)nc1 | - | L6 | 34 nM
COC(=O)N[C@H](C(=O)NCCN[C@@H]1CNC[C@H]1N(C(C)C)S(=O)(=O)c1ccc(N)cc1)C(c1ccccc1)c1ccccc1 | microscopy | T lymphoid cells | >10 µM
Nc1ccn([C@H]2CC[C@@H](CO)O2)c(=O)n1 | - | MKN-28 | 451.6 µg/mL
COC(=O)C(C)NP(=O)(OC[C@@H]1C/C1=C\n1cc(N)c(=O)[nH]c1=O)Oc1ccccc1 | - | H-1 | >100 µM
Nc1[nH]c(N=NC(=O)c2ccccn2)c2cccc(Oc3ccccc3)c12 | - | L6 | 22 nM
CCCCCCCCCCCCCCCCCCOCCOP(=O)(O)CO[C@@H](CO)Cn1cnc2c(N)ncnc21 | neutral red | Huh7.5.1 | >100 µM
Nc1ncnc2c1c(-c1ccsc1)cn2[C@@H]1O[C@H](CO)[C@@H](O)[C@H]1F | XTT | Replicon cells | >44 µM
Nc1[nH]c(N=NC(=O)c2ccccn2)c2cccc(OCC(F)(F)F)c12 | - | L6 | 120 nM
Cc1c(CO)c(=O)oc2c3c(ccc12)OC(C)(C)[C@H](OC(=O)C12CCC(C)(C(=O)O1)C2(C)C)[C@@H]3OC(=O)C12CCC(C)(C(=O)O1)C2(C)C | XTT | H9 | 24.9 µM
CCOC(=O)c1cc(O)c(O)c(O)c1 | MTS | U-87 | >200 µM
NCc1ccc(-c2cccc(Cc3cc(=O)n(O)c4ncccc34)c2)cc1 | - | HeLa | <100 µM
OC(CNCc1ccccc1)COc1ccc2ccccc2c1 | MTT | CHO | 123.4 µM
CCOC(=O)CCCCCOc1cccc(CN(C(=O)c2ccc(-c3ccncc3)cc2)C(C)C)c1 | - | RAJI | >20 µM
O=c1[nH]c(=O)n([C@H]2C[C@H](O)[C@@H](CO)O2)cc1/C=C/Cl | cell count | NIH 3T3 | >70 µM
Nc1nc(-c2ccc(NC(=O)CN(Cc3ccccc3)C(=O)Cc3cccnc3)cc2)cs1 | - | HS68 | >50 µM
COC(=O)N[C@H](C(=O)NCCN[C@@H]1CNC[C@H]1N(CC(C)C)S(=O)(=O)c1ccc(N)cc1)C(c1ccccc1)c1ccccc1 | microscopy | T lymphoid cells | >10 µM
C=C1[C@H](CO)[C@@H](O)C[C@@H]1n1cnc2c(=O)[nH]c(N)nc21 | - | Duck hepatocytes | 8.1 µM
CCCCCCCCCCCCCCCCCCOCCOP(=O)(O)CO[C@H](CO)Cn1cnc2c(N)ncnc21 | neutral red | Huh7.5.1 | 35.6 µM
O=C(O)C(O)c1ccccc1 | - | CaSki Cells | >1000 µg/mL
CC(=O)OCc1cc2c(C)cc(=O)oc2c2c1OC(C)(C)[C@H](OC(=O)C13CCC(C)(C(=O)O1)C3(C)C)[C@@H]2OC(=O)C12CCC(C)(C(=O)O1)C2(C)C | XTT | H9 | >14.1 µM
COC(=O)C(C)NP(=O)(OC[C@@H]1C/C1=C/n1cc(C)c(=O)[nH]c1=O)Oc1ccccc1 | - | H-1 | 45 µM
Nc1ncnc2c1c(-c1ccccc1)cn2[C@@H]1O[C@H](CO)[C@@H](O)C1(F)F | XTT | Replicon cells | 18.86 µM
OCC1CCC(c2ccc3ncnc(Nc4ccc(C5CCOCC5)cc4)c3c2)O1 | - | Con1-SR | 29.3 µM
Nc1nc(-c2ccc(NC(=O)NCCN(Cc3ccccc3)Cc3ccccc3)cc2)cs1 | - | HS68 | <5 µM
CC(C)N(Cc1cccc(OCCCCCC(=O)OC(=O)O)c1)C(=O)c1ccc(-c2cccc([N+](=O)[O-])c2)cc1 | - | HEK 293 | >20 µM
COC(=O)N[C@H](C(=O)NCCN[C@@H]1CNC[C@H]1N(Cc1ccccc1)S(=O)(=O)c1ccc(N)cc1)C(c1ccccc1)c1ccccc1 | microscopy | T lymphoid cells | >10 µM
CC(C)c1c(OCC(O)CN2CCOCC2)ccc2c1CCC1C(C)(C)CCC[C@]21C | MTT | CHO | 5.61 µM
CCCCS(=O)(=O)Nc1ccc2[nH]c(Br)c(C)c2c1 | resazurin | VERO | 72 µM
CC(C)c1c(OCC(O)CN2CCN(c3ccccc3Cl)CC2)ccc2c1CCC1C(C)(C)CCC[C@]21C | MTT | CHO | 186 µM
Nc1ncnc2c1ncn2[C@@H]1O[C@H](CSCCC(N)C(=O)O)C[C@H]1O | - | PRK/E6SM | 200 µg/mL
CCCCS(=O)(=O)Nc1ccc2[nH]c(CNC(C)=O)c(C)c2c1 | resazurin | VERO | >150 µM
C#Cc1cn([C@@H]2O[C@H](CO)[C@@H](O)C2(F)F)c2ncnc(N)c12 | XTT | Replicon cells | 15.62 µM
CCOc1ccccc1N1CCN(CC(O)COc2ccc3c(c2C(C)C)CCC2C(C)(C)CCC[C@]32C)CC1 | MTT | CHO | 183 µM
O=c1[nH]c(=O)n([C@H]2C[C@H](O)[C@@H](CO)O2)cc1-c1ccc(Br)s1 | cell count | NIH 3T3 | 151 µM
Nc1cn(C=C2C[C@H]2CO)c(=O)[nH]c1=O | - | H-1 | >50 µM
O=C(N/N=C(/CS(=O)(=O)c1ccccc1)c1ccccc1)c1ccc([N+](=O)[O-])o1 | MTT | MDA-MB-231 | >50 µg/mL
Nc1ncnc2c1c(-c1ccco1)cn2[C@H]1O[C@H](CO)[C@@H](O)C1(F)F | XTT | Replicon cells | 40.61 µM
O=[N+]([O-])c1ccc(N=NNc2ccc([N+](=O)[O-])cc2Cl)c(Cl)c1 | neutral red | J774A.1 | 46.59 µM
Cc1nc2ccccc2n1C(=O)/C=C/c1ccccc1 | MTT / absorbance | 8E5 | >30 µg/mL
CCCCS(=O)(=O)Nc1ccc2[nH]c(C(=O)NCc3ccc(F)cc3F)c(C)c2c1 | resazurin | VERO | 110 µM
Nc1ncnc2c1c(I)cn2COCCO | - | BSC-1 | >100 µM
Nc1[nH]c(N=NC(=O)c2ccccn2)c2cccc(Sc3ccccc3)c12 | - | L6 | 7 nM
Nc1ncnc2c1ncn2C[C@H](CO)OCP(=O)(O)O | neutral red | Huh7.5.1 | >100 µM
O=c1c2cc(-c3ccccc3)ccc2c2cccnc2n1O | - | HeLa | <100 µM
COc1ccc(CN2C3C4(CO)C(c5ccccc5)C5(CO)C2C2(CO)C(C6C=CC=CC6)C3(CO)C4N(Cc3ccc(OC)cc3)C52)cc1 | - | EPG85-257DB | 80 µM
Nc1ncnc2c1CCN2[C@@H]1O[C@H](CO)C[C@H]1O | - | PRK/E6SM | 40 µg/mL
CC1(C)Oc2ccc3cc(CO)c(=O)oc3c2[C@@H](OC(=O)C23CCC(C)(C(=O)O2)C3(C)C)[C@H]1OC(=O)C12CCC(C)(C(=O)O1)C2(C)C | XTT | H9 | 23 µM
N#Cc1cccc(S(=O)(=O)N(Cc2c(Cl)cccc2Cl)c2cccc(C(=O)NC3CCC3)c2)c1 | absorbance | SG-Neo (L+I) | 30 µM
Nc1nc(-c2ccc(NC(=O)NCc3ccc(Cl)cc3)cc2)cs1 | - | HS68 | <1 µM
COc1ccc(N(Cc2c(Cl)cccc2Cl)S(=O)(=O)c2cccc(C#N)c2)cc1C(=O)O | absorbance | NHDF | >33 µM
O=C(NCC1CCNC1)c1c(O)c2cccnc2n(O)c1=O | - | HeLa | <100 µM

Repeating the final 9 entries:

smiles,method,cell line,value
Nc1ncnc2c1ncn2C[C@H](CO)OCP(=O)(O)O,neutral red,Huh7.5.1,>100 µM
O=c1c2cc(-c3ccccc3)ccc2c2cccnc2n1O,-,HeLa,<100 µM
COc1ccc(CN2C3C4(CO)C(c5ccccc5)C5(CO)C2C2(CO)C(C6C=CC=CC6)C3(CO)C4N(Cc3ccc(OC)cc3)C52)cc1,-,EPG85-257DB,80 µM
Nc1ncnc2c1CCN2[C@@H]1O[C@H](CO)C[C@H]1O,-,PRK/E6SM,40 µg/mL
CC1(C)Oc2ccc3cc(CO)c(=O)oc3c2[C@@H](OC(=O)C23CCC(C)(C(=O)O2)C3(C)C)[C@H]1OC(=O)C12CCC(C)(C(=O)O1)C2(C)C,XTT,H9,23 µM
N#Cc1cccc(S(=O)(=O)N(Cc2c(Cl)cccc2Cl)c2cccc(C(=O)NC3CCC3)c2)c1,absorbance,SG-Neo (L+I),30 µM
Nc1nc(-c2ccc(NC(=O)NCc3ccc(Cl)cc3)cc2)cs1,-,HS68,<1 µM
COc1ccc(N(Cc2c(Cl)cccc2Cl)S(=O)(=O)c2cccc(C#N)c2)cc1C(=O)O,absorbance,NHDF,>33 µM
O=C(NCC1CCNC1)c1c(O)c2cccnc2n(O)c1=O,-,HeLa,<100 µM

An empty or dashed field is not shown. Conditions beyond the fields shown may differ between rows.